Results of unrelated studies side by side (data: NIAID ChemDB).

Common to all: enzyme or target tests; organism: HIV-1; target: Reverse transcriptase

Rows are shuffled and stem from different studies. An empty or dashed field is not shown. ICn is the concentration giving n% inhibition. Two numbers with a dash give a range or band.

compound	mutations	read by	endpoint	strain	value
CCN1c2ncccc2C(=O)N(C)c2ccc(-c3ncc[nH]3)nc21	RT-Y181C	nucleotide incorporation	IC50	-	0.74 µM
CCN1c2ncc(CCOc3ccc(CC(C)C(=O)O)c4ccccc34)cc2C(=O)Nc2c(C)cc(Cl)nc21	RT-K103N Y181C	nucleotide incorporation / radiometric	IC50	-	0.1–1 µM
CCN1c2ncc(CNc3ccccc3)cc2C(=O)N(C)c2ccc(Cl)nc21	-	nucleotide incorporation / radiometric	IC50	WT	<1 µM
COc1ccc(/C=C/NC(=O)Nc2ccc(Cl)cn2)cc1OC	-	nucleotide incorporation	Ki	-	7 µM
N#Cc1ccc(NC(=S)N[C@@H]2[C@@H]3COc4c(F)ccc(F)c4[C@@H]32)nc1	Y181C	scintillation proximity / radiometric	IC50	-	0.016 µM
CCN1c2ncc(CCOc3ccc(CCC(=O)O)c4ccccc34)cc2C(=O)Nc2c(C)ccnc21	RT-Y188L	nucleotide incorporation / radiometric	IC50	-	>1 µM
O=C(O)Cn1cnc2c(Oc3ccccc3[N+](=O)[O-])nc(NC(=O)OCc3ccccc3)nc21	L100I	nucleotide incorporation / radiometric	Ki	NNRTI-resistant	43 µM
Cc1cc2c(cc1C)n1cccc1c(=O)n2CCNC(=S)Nc1ccc(Br)cn1	RT-Y188L	nucleotide incorporation	Ki	-	0.5 µM
c1ccc(C2SCc3nc4ccccc4n32)cc1	RT-L100I	-	IC50	-	>50 µM
Nc1ccn([C@H]2CC[C@@H](COP(=O)(O)OP(=O)(O)OP(=O)(O)O)O2)c(=O)n1	RT-L74V	nucleotide incorporation / radiometric	Ki	-	0.77 µM
Cc1cn([C@H]2CC[C@@H](COP(=O)(O)OP(=O)(O)OP(=O)(O)O)O2)c(=O)[nH]c1=O	RT-E138K	nucleotide incorporation / radiometric	IC50	-	0.1 µM
CCN1c2ncc(Cc3ccccc3)cc2C(=O)N(C)c2cccnc21	-	nucleotide incorporation / radiometric	IC50	WT	<1 µM
CCN1c2ncccc2C(=O)N(C)c2ccc(-c3cccc(O)c3)nc21	-	nucleotide incorporation	IC50	-	0.07 µM
Cc1cn([C@H]2C=C[C@@H](COP(=O)(O)OP(=O)(O)OP(=O)(O)O)O2)c(=O)[nH]c1=O	RT-M184V	nucleotide incorporation / radiometric	Ki	-	0.19 µM
COc1ccc2c(c1)N(C(=O)OC(C)C)[C@@H](CSC)C(=S)N2	RT-G190S	scintillation proximity / radiometric	IC50	-	1 µM
CCN1c2ncc(CCOc3cccc4c3CCCN4CC(=O)O)cc2C(=O)N(C)c2cccnc21	RT-V106A	nucleotide incorporation / radiometric	IC50	-	>1 µM
Cc1ccc2c(c1)n(CCNC(=S)Nc1ccc(Br)cn1)c(=O)c1cccn12	RT-L100I	nucleotide incorporation	Ki	-	0.35 µM
CCN1c2ncc(CCOc3ccc(CC(=O)O)c4ccccc34)cc2C(=O)N(C)c2ccc(F)nc21	-	nucleotide incorporation / radiometric	IC50	WT	<0.1 µM
CCN1c2ncc(CCOc3cc[n+]([O-])cc3)cc2C(=O)N(C)c2ccc(Cl)nc21	RT-Y181C	nucleotide incorporation / radiometric	IC50	-	<1 µM
CCN1c2ncc(CCOc3ccc(C(=O)O)c4ccccc34)cc2C(=O)N(C)c2cccnc21	RT-V106A	nucleotide incorporation / radiometric	IC50	-	>1 µM
CCN1c2ncc(COc3cc[n+]([O-])c(C(F)(F)F)c3)cc2C(=O)N(C)c2ccc(Cl)nc21	RT-Y181C	nucleotide incorporation / radiometric	IC50	-	<1 µM
O=S1(c2ccccc2)=NC(=S)Nc2ccccc21	-	nucleotide incorporation	IC50	-	5.1 µM
O=C(O)Cn1cnc2c(=O)[nH]c(NC(=O)OCc3ccccc3)nc21	Y188L	nucleotide incorporation / radiometric	Ki	NNRTI-resistant	25.7 µM
CCN1c2ncc(CCOc3ccc(CC(N)=O)c4ccccc34)cc2C(=O)N(C)c2cccnc21	RT-V106A	nucleotide incorporation / radiometric	IC50	-	0.1–1 µM
O=c1c2cccn2c2ccccc2n1CCNC(=S)Nc1ccc(Br)cn1	RT-L100I	nucleotide incorporation	Ki	-	0.105 µM
CCN1c2ncc(CCc3cccc(F)c3)cc2C(=O)N(C)c2cccnc21	RT-Y181C	nucleotide incorporation / radiometric	IC50	-	<1 µM
Nc1ncnc2c1ncn2CCOCP(=O)(O)OP(=O)(O)OP(=O)(O)O	RT-A62V V75I F77L F116Y Q151M	nucleotide incorporation / radiometric	Ki	-	0.5 µM
CCN1c2ncc(COc3ccc(C(=O)OC)cc3)cc2C(=O)N(C)c2ccc(Cl)nc21	-	nucleotide incorporation / radiometric	IC50	WT	<1 µM
Nc1ncnc2c1ncn2[C@H]1CC[C@@H](COP(=O)(O)OP(=O)(O)OP(=O)(O)O)O1	RT-L74V	nucleotide incorporation / radiometric	Ki	-	0.61 µM

A second listing of 2 rows from above:

CCN1c2ncc(CCOc3ccc(CC(N)=O)c4ccccc34)cc2C(=O)N(C)c2cccnc21 ; mutations: RT-V106A ; read by: nucleotide incorporation / radiometric ; endpoint: IC50 ; value: 0.1–1 µM
CCN1c2ncc(CCOc3ccc(CC(C)C(=O)O)c4ccccc34)cc2C(=O)Nc2c(C)cc(Cl)nc21 ; mutations: RT-K103N Y181C ; read by: nucleotide incorporation / radiometric ; endpoint: IC50 ; value: 0.1–1 µM